Results taken from article PMC11599018.
Where two headings read alike, the source gives them in different places.

Chains of the proteins cited; added tags and fusions are not shown. Residues count along the entry.
UniProt P30530, 26-449: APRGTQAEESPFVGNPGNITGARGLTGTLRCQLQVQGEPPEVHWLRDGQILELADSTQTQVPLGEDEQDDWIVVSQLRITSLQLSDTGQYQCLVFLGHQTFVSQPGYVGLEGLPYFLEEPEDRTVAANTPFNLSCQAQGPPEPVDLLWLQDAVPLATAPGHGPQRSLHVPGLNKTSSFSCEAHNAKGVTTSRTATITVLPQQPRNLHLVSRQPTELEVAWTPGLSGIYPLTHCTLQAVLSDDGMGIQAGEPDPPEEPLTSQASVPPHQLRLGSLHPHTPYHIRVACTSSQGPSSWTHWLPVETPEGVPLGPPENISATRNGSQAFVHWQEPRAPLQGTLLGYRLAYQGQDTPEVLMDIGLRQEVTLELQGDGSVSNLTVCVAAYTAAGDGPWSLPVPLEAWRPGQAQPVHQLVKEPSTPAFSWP

Experiments:
Human Axl (human) [1] = target: Human Axl (human) (UniProt P30530); assay: MST
Human Axl (human) [2] = target: Human Axl (human) (UniProt P30530); assay: AFM single molecule force spectroscopy
Human Axl (human) [3] = target: Human Axl (human) (UniProt P30530); assay: AFM single molecule force spectroscopy; remark: listed apart in the source

Human Gas6 protein (ligand) gave a Kd (Human Axl (human) [1]) of 126 nM, a koff (Human Axl (human) [2]) of 0.262 s⁻¹ and a binding frequency (Human Axl (human) [3]) of 43%. For the same substance, the koff (Human Axl (human) [3]) was 0.264 s⁻¹.
